Results of unrelated studies side by side (data: NIAID ChemDB).

All rows: growth or infection tests; agent: Mycobacterium tuberculosis

Conditions beyond the fields shown may differ between rows. Blank or dashed fields: not listed here. MIC bound: limit read from a one-dose screen. A number after MIC or MFC names an inhibition level or a share of isolates. Inhibition is in % at the dose shown (toxicity tests: loss of growth or viability). ECn is the concentration giving n% inhibition of infection, replication or growth.

| SMILES | read by | mutations | strain or isolate | endpoint | dose | result |
|---|---|---|---|---|---|---|
| CCn1cc(C(=O)O)c(=O)c2cc(F)c(N3CCNCC3)cc21 |  |  | 134 strains | MIC90 |  | 8 µg/mL |
| CC(C)C[C@@H]1NC(=O)[C@H](Cc2c[nH]c3ccccc23)NC(=O)[C@@H](CCCN=C(N)N)NC(=O)[C@H](CC(N)=O)NC(=O)[C@H](C(C)C)NC(=O)[C@@H](CC(C)C)NC1=O | turbidity |  | HN353 | MIC90 |  | 2.97 µM |
| CN1C(=O)[C@@]23C[C@]4(n5cc(C[C@]67SS[C@@](CO)(C(=O)N6C)N(C)C7=O)c6ccccc65)c5ccccc5N[C@@H]4N2C(=O)[C@]1(CO)SS3 | BACTEC |  | H37Rv | MIC |  | 0.2 µg/mL |
| O=c1oc2ccccc2cc1-c1cs/c(=N\N=C\c2cc([N+](=O)[O-])ccc2O)n1Cc1ccccc1 |  |  | H37Rv | inhibition | 6.25 µg/mL | <11% |
| CNc1nnc(-c2ccc(N)cc2)s1 | BACTEC |  | H37Rv | inhibition | 6.25 µg/mL | 29% |
| CCc1c2c(nc3ccc(OCc4cccc(OC)c4)cc13)-c1cc3c(c(=O)n1C2)COC(=O)C3(O)CC | resazurin |  | H37Rv | MIC |  | 12.2 µM |
| Cc1c(C2(c3cc(Br)c(O)c(Br)c3C)OS(=O)(=O)c3ccccc32)cc(Br)c(O)c1Br | BACTEC |  | H37Rv | inhibition | 12.5 µg/mL | 21% |
| O=c1oc2ccccc2cc1-c1cs/c(=N\N=C\c2ccc(Br)cc2)n1Cc1ccccc1 |  |  | H37Rv | inhibition | 6.25 µg/mL | <11% |
| Cc1ccc(Nc2c(C#N)[n+]([O-])c3cc(Cl)ccc3[n+]2[O-])cc1 |  |  | H37Rv | MIC |  | <12.5 µg/mL |
| NCCCN1c2ccccc2Sc2ccccc21 | resazurin |  | STB-960 | MIC |  | 0.25 µg/mL |
| O=[N+]([O-])c1ccccc1-n1cc(CSC2c3ccccc3-c3ccccc32)nn1 | broth dilution |  | Specimen 192 | MIC99 |  | >250 µM |
| NNC(=O)c1ccncc1 | resazurin |  | XDR-926 | MIC |  | 8 µg/mL |
| Cc1cn([C@H]2C[C@H](CN=[N+]=[N-])[C@@H](CO)O2)c(=O)[nH]c1=O |  |  | H37Rv | MIC |  | >6.25 µg/mL |
| CC[C@H]1OC(=O)[C@H](C)[C@@H](O[C@H]2C[C@@](C)(OC)[C@@H](O)[C@H](C)O2)[C@H](C)[C@@H](O[C@@H]2O[C@H](C)C[C@H](N(C)C)[C@H]2O)[C@](C)(OC)C[C@@H](C)C(=O)[C@H](C)[C@@H](O)[C@]1(C)O |  |  | 30 strains | MIC50 |  | >10 µg/mL |
| CCCCCCCCC(=O)c1c(OC)oc(C=O)cc1=O | BACTEC |  | H37Rv | inhibition | 12.5 µg/mL | -5% |
| CC(=O)/C(N=Nc1ccc(-c2nnc(Nc3ccc(C)cc3)s2)cc1)=C(\C)O | BACTEC |  | H37Rv | inhibition | 6.25 µg/mL | 0% |
| FC(F)(F)c1ccc(-n2cc(CNC3c4ccccc4-c4ccccc43)nn2)cc1 | broth dilution |  | H37Rv | MIC99 |  | 123.3 µM |
| COc1ccccc1[C@H](c1cc2cc(Br)ccc2cc1OC)[C@@](O)(CCN(C)C)c1cccc2ccccc12 | resazurin |  | H37Rv | MIC |  | 0.258 µg/mL |
| O=C1CCCCC1C(Nc1nc(-c2ccc(O)cc2)cs1)c1ccc(Cl)cc1 | broth dilution / agar / visual reading |  | H37Rv | MIC |  | 12.5 µg/mL |
| CCc1c2c(nc3ccc(OCc4ccccc4)cc13)-c1cc3c(c(=O)n1C2)COC(=O)C3(O)CC | resazurin | Extensively drug-resistant | XDR | MIC |  | 25.9 µM |
| COc1ccc(-c2csc(NC(c3ccc(OC)cc3)C3CCCCC3=O)n2)cc1 | broth dilution / agar / visual reading |  | H37Rv | MIC |  | 50 µg/mL |
| O=C1C=C(Nc2cccc(Cl)c2)c2ccccc2C1=O | resazurin |  | H37Rv | MIC |  | 3.13 µg/mL |
| COc1nc2ccc(Br)cc2cc1[C@@H](c1ccccc1)[C@](O)(CCN(C)C)c1cccc2ccccc12 | resazurin |  | H37Rv | MIC |  | >32 µg/mL |
| Cl.NC1CON(C(c2ccccc2)(c2ccccc2)c2ccccc2)C1=O | BACTEC |  | H37Rv | MIC |  | ≥12.5 µg/mL |
| S=C(Nc1ccccc1)Nc1ccc(-c2nnc(Nc3ccccc3)s2)cc1 | BACTEC |  | H37Rv | inhibition | 6.25 µg/mL | 1% |
| CC(C)C[C@@H]1NC(=O)[C@H](Cc2c[nH]c3ccccc23)NC(=O)[C@@H](CCCCN)NC(=O)[C@H](CC(N)=O)NC(=O)[C@H](C(C)C)NC(=O)[C@@H](CC(C)C)NC1=O | turbidity |  | HN878 | MIC90 |  | 2.97 µM |
| CCc1nc2c(F)cc(F)cn2c1C(=O)NCc1ccc(N2CCN(S(=O)(=O)C(F)(F)F)C=N2)c(F)c1 | GFP |  |  | EC50 |  | 0.0038 µM |
| NNC(=O)c1ccncc1 | resazurin / fluorescence | MDR | JAL 2278 | MIC |  | >100 µg/mL |
| C[C@@H]1CC[C@@]2(OC1)O[C@H]1C[C@H]3[C@@H]4CC[C@H]5C[C@@H](O)CC[C@]5(C)[C@H]4CC[C@]3(C)[C@H]1[C@@H]2C | BACTEC |  | H37Rv | MIC bound |  | >12.8 µg/mL |
| CCc1c2c(nc3ccc(OCc4ccc(F)c(F)c4)cc13)-c1cc3c(c(=O)n1C2)COC(=O)C3(O)CC | resazurin |  | H37Rv | MIC |  | 24.1 µM |
| Clc1ccc(-n2cc(CNC3c4ccccc4-c4ccccc43)nn2)cc1 | broth dilution |  | H37Rv | MIC99 |  | 268 µM |
| NNC(=O)c1ccncc1 | turbidity |  | H37Rv | EC50 |  | 0.06 µM |
| CCc1nc2ccc(C)cn2c1C(=O)NCc1ccc(N2CCN(S(=O)(=O)C(F)(F)F)C(C3CC3)=N2)cc1 | GFP |  |  | EC50 |  | 0.0012 µM |
| CC(C)C[C@@H]1NC(=O)[C@H](Cc2c[nH]c3ccccc23)NC(=O)[C@H](CCCCN)NC(=O)[C@H](CC(N)=O)NC(=O)[C@H](C(C)C)NC(=O)[C@@H](CC(C)C)NC1=O | turbidity |  | H37Rv | EC50 |  | >30 µM |
| COC(=O)c1ccccc1S(=O)(=O)NC(=O)Nc1nc(C)cc(C)n1 |  |  | ATCC35801 | MIC |  | >3.6 µg/mL |
| CCc1c2c(nc3ccc(OCc4ccc(I)cc4)cc13)-c1cc3c(c(=O)n1C2)COC(=O)C3(O)CC | resazurin | Extensively drug-resistant | XDR | MIC |  | 20.55 µM |
| CCOC(=O)C1=C(C)NC(C)=C(C(=O)OCC)C1c1c(-c2ccccc2)noc1C | resazurin |  | H37Rv | inhibition | 6.25 µg/mL | 24% |
| CC(C)C[C@@H]1NC(=O)[C@H](Cc2c[nH]c3ccccc23)NC(=O)[C@@H](CCCN)NC(=O)[C@H](CC(N)=O)NC(=O)[C@H](C(C)C)NC(=O)[C@@H](CC(C)C)NC1=O | turbidity |  | HN878 | MIC90 |  | 2.97 µM |
| CO[C@H]1/C=C/O[C@@]2(C)Oc3c(C)c(O)c4c(O)c(c(/C=N/N5CCN(C)CC5)c(O)c4c3C2=O)NC(=O)/C(C)=C\C=C\[C@H](C)[C@H](O)[C@@H](C)[C@@H](O)[C@@H](C)[C@H](OC(C)=O)[C@@H]1C | resazurin |  | H37Rv | MIC |  | 0.04 µg/mL |
| O=c1oc2ccccc2cc1-c1cs/c(=N\N=C\c2cc(Br)ccc2O)n1Cc1ccccc1 |  |  | H37Rv | inhibition | 6.25 µg/mL | <11% |
| S=C(Nc1ccccc1)Nc1ccc(-c2nnc(NCc3ccccc3)s2)cc1 | BACTEC |  | H37Rv | inhibition | 6.25 µg/mL | 16% |
| O=C1CCCCC1C(Nc1nc(-c2ccc(O)cc2)cs1)c1ccccc1 | broth dilution / agar / visual reading |  | H37Rv | MIC |  | 50 µg/mL |
| CC(C)=CCc1c(-c2ccc(O)cc2O)oc2c3c(cc(O)c2c1=O)OC(C)(C)C=C3 | BACTEC |  | H37Rv | MIC bound |  | >12.5 µg/mL |
| COc1ccccc1[C@H](c1cc2cc(Br)ccc2cc1OC)[C@](O)(CCN(C)C)c1cccc2ccccc12 | resazurin |  | H37Rv | MIC |  | 1.999 µg/mL |
| C/C=C1\C(=O)O[C@]23C=C[C@@H]4C(C(=O)OC)=CO[C@H](O[C@@H]12)[C@@H]43 | MTT |  | MDR4 clinical isolate | MIC |  | 2.6 µg/mL |
| O=c1oc2ccc(Br)cc2cc1-c1cs/c(=N\N=C\c2ccc(Cl)c(Cl)c2)n1Cc1ccccc1 |  |  | H37Rv | MIC |  | >6.25 µg/mL |
| COC1=CCC2=C(CC[C@H]3[C@H]2CCP3C)C1 | resazurin |  | H37Rv | inhibition | 6.25 µg/mL | 13% |
| CCc1c2c(nc3ccc(OCc4cccc(F)c4)cc13)-c1cc3c(c(=O)n1C2)COC(=O)C3(O)CC | resazurin |  | H37Rv | MIC |  | 24.97 µM |
| CN(Cc1ccc(Cl)cc1)C(=S)SCc1cccs1 | BACTEC |  | H37Rv | MIC |  | 32 µg/mL |
| Cc1ccc(-n2cc(CNC3c4ccccc4-c4ccccc43)nn2)cc1C | broth dilution |  | H37Rv | MIC99 |  | >273 µM |
| CC1(C)S[C@@H]2[C@H](NC(=O)[C@H](N)c3ccccc3)C(=O)N2[C@H]1C(=O)O |  |  | IRZ | MIC |  | >92 µM |
| NC(=S)C1OC(COC(=O)c2ccccc2)C(OC(=O)c2ccccc2)C1OC(=O)c1ccccc1 | BACTEC |  | H37Rv | inhibition | 12.5 µg/mL | 16% |
| N[C@@H]1CONC1=O | agar |  | 35 strains | EC50 |  | <20 µg/mL |
| CCc1nc2ccc(C)cn2c1C(=O)NCc1ccc(N2CCN(S(=O)(=O)C(F)(F)F)C(C(=O)N(C)C)=N2)cc1 | GFP |  |  | EC50 |  | 0.012 µM |
| Cc1c2cc[n+](C)cc2c(C)c2c1[nH]c1ccc(Cl)cc12 | resazurin / fluorescence |  |  | MIC |  | 1 µg/mL |
| CO/N=C(\C(=O)N[C@@H]1C(=O)N2C(C(=O)O)=CCS[C@H]12)c1csc(N)n1 |  |  | 26 strains | MIC50 |  | 64 µg/mL |
| CCCCCCOCCOCCCNC(=O)c1cccnc1 | BACTEC |  | H37Rv | inhibition | 12.5 µg/mL | 0% |
| O=c1oc2ccc(Br)cc2cc1-c1cs/c(=N\N=C\c2ccc(Br)cc2)n1Cc1ccccc1 |  |  | H37Rv | MIC |  | >6.25 µg/mL |
| Nc1ccc(C(=O)O)c(O)c1 | agar |  | 35 strains | inhibition | 10 µg/mL | 100% |
| O=C1NNC2(C(=O)N1)c1ccccc1-c1ccccc12 | BACTEC |  | H37Rv | MIC bound |  | >12.5 µg/mL |
| CNn1cc(C(=O)O)c(=O)c2cc(F)c(N3CCN(C)CC3)cc21 |  |  | 22 strains | MIC50 |  | 4 µg/mL |
| CCOC(=O)c1c(NC(=O)CCl)ssc1=S | BACTEC |  | H37Rv | MIC |  | 12.5 µg/mL |
| O=[N+]([O-])c1ccccc1-n1cc(CNC2c3ccccc3-c3ccccc32)nn1 | broth dilution |  | H37Rv | MIC99 |  | 261 µM |
| CCC(C)(O)Cc1cnccn1 | BACTEC |  | H37Rv | MIC |  | ≥12.5 µg/mL |
| O=c1oc2ccccc2cc1-c1cs/c(=N\N=C\c2ccc(F)cc2)n1Cc1ccccc1 |  |  | H37Rv | MIC |  | >6.25 µg/mL |
| COc1ccc2cc1-c1cc(ccc1O)C[C@H]1c3cc4c(cc3CCN1C)Oc1c(OC)cc3c(c1O4)[C@H](C2)N(C)CC3 |  |  | TAC-R | MIC |  | 3.1 µg/mL |
| CCc1c2c(nc3ccc(OCc4ccccc4Br)cc13)-c1cc3c(c(=O)n1C2)COC(=O)C3(O)CC | resazurin | Extensively drug-resistant | XDR | MIC |  | 22.26 µM |
| CC[C@H](C)[C@@H]1NC(=O)[C@@H]2CCCN2C(=O)[C@@H](CC(C)C)OC(=O)CCNC(=O)[C@@H](C)N(C)C(=O)[C@H](C(C)C)N(C)C1=O | BACTEC |  | H37Rv | MIC |  | ≥12.5 µg/mL |
| COc1ccc(-c2csc(NC(c3cccc(Cl)c3)C3CCCCC3=O)n2)cc1 | broth dilution / agar / visual reading |  | H37Rv | MIC |  | 12.5 µg/mL |
| C[B-]1(C)n2cc(Br)c[n+]2[B-](C)(C)n2cc(Br)c[n+]21 | BACTEC |  | H37Rv | MIC |  | ≥128 µg/mL |
| Cc1ccc2[nH]c3c(C)c4ccncc4c(C)c3c2c1 | resazurin / fluorescence | XDR | MYC 431 | MIC |  | >100 µM |
| O=C1C(=O)c2cccnc2-c2ncccc21 | BACTEC |  | H37Rv | MIC bound |  | ≤12.5 µg/mL |
| CCc1nc2c(C)cc(Cl)cn2c1C(=O)NCc1ccc(N2CCN(S(=O)(=O)C(F)(F)F)C=N2)c(F)c1 | GFP |  |  | EC50 |  | 0.95 µM |
| CCN(CC)C(=O)c1cncc(C(N)=O)c1 | BACTEC |  | H37Rv | MIC |  | ≥12.5 µg/mL |
| O=S(=O)(Cc1cn(-c2ccccc2Cl)nn1)C1c2ccccc2-c2ccccc21 | broth dilution |  | Specimen 192 | MIC99 |  | 237 µM |

The first 6 rows once more:

CCn1cc(C(=O)O)c(=O)c2cc(F)c(N3CCNCC3)cc21 ; strain or isolate: 134 strains ; endpoint: MIC90 ; result: 8 µg/mL
CC(C)C[C@@H]1NC(=O)[C@H](Cc2c[nH]c3ccccc23)NC(=O)[C@@H](CCCN=C(N)N)NC(=O)[C@H](CC(N)=O)NC(=O)[C@H](C(C)C)NC(=O)[C@@H](CC(C)C)NC1=O ; read by: turbidity ; strain or isolate: HN353 ; endpoint: MIC90 ; result: 2.97 µM
CN1C(=O)[C@@]23C[C@]4(n5cc(C[C@]67SS[C@@](CO)(C(=O)N6C)N(C)C7=O)c6ccccc65)c5ccccc5N[C@@H]4N2C(=O)[C@]1(CO)SS3 ; read by: BACTEC ; strain or isolate: H37Rv ; endpoint: MIC ; result: 0.2 µg/mL
O=c1oc2ccccc2cc1-c1cs/c(=N\N=C\c2cc([N+](=O)[O-])ccc2O)n1Cc1ccccc1 ; strain or isolate: H37Rv ; endpoint: inhibition ; dose: 6.25 µg/mL ; result: <11%
CNc1nnc(-c2ccc(N)cc2)s1 ; read by: BACTEC ; strain or isolate: H37Rv ; endpoint: inhibition ; dose: 6.25 µg/mL ; result: 29%
CCc1c2c(nc3ccc(OCc4cccc(OC)c4)cc13)-c1cc3c(c(=O)n1C2)COC(=O)C3(O)CC ; read by: resazurin ; strain or isolate: H37Rv ; endpoint: MIC ; result: 12.2 µM